The numbers were not newly measured in paper PMC8206078, “Identification of pyrogallol as a warhead in design of covalent inhibitors for the SARS-CoV-2 3CL protease” (Nature Communications, 2021), which cites them from elsewhere.

In general, Ki refers to the equilibrium dissociation constant of an inhibitor or competing ligand from its target.

The target in this data set is SARS-CoV-2 Mpro. The following applies: cited from earlier work.

Consider GC376, for which the Ki was 60 nM.
